Results of unrelated studies side by side (data: NIAID ChemDB).

All rows: whole-cell or culture tests; agent: HIV-1; read by: syncytia; read-out: EC50

Blank or dashed fields: not listed here. Conditions beyond the fields shown may differ between rows. ECn: concentration that inhibits the pathogen or its effect by n%.

Cc1ccnc2c1NC(=O)c1cccnc1N2C1CC1 ; mutations: RT-Y188H ; cell line: CEM ; strain: IIIB ; result: 0.02 µg/mL
CCOCn1c(Sc2ccccc2)c(CC)c(=O)[nH]c1=O ; mutations: RT-Y181C ; cell line: CEM ; strain: IIIB PYR(RT-Y181C) ; result: 0.26 µg/mL
CCc1cc(NCc2nc3c(Cl)ccc(Cl)c3o2)c(=O)[nH]c1C ; mutations: RT-L100I ; cell line: CEM ; strain: IIIB-TIBO(0.5)(RT-L100I) ; result: 0.51 µg/mL
CCc1cc(NCc2nc3c(Cl)ccc(Cl)c3o2)c(=O)[nH]c1C ; cell line: CEM ; strain: IIIB ; result: 0.02 µM
CCOCn1c(Cc2cc(C)cc(C)c2)c(CC)c(=O)[nH]c1=O ; mutations: RT-L100I ; cell line: CEM ; strain: IIIB TIBO R82150-resistant (RT L100I) ; result: 0.054 µM
Cc1cn([C@@H]2O[C@H](CO[Si](C)(C)C(C)(C)C)C3(OS(=O)(=O)C=C3N)[C@H]2O[Si](C)(C)C(C)(C)C)c(=O)n(C)c1=O ; mutations: RT-V179N ; cell line: CEM ; strain: IIIB-Pyridinone(0.1)(RT-V179N ; result: 0.22 µg/mL
CCOCn1c(Sc2ccccc2)c(CC)c(=O)[nH]c1=O ; cell line: CEM ; strain: IIIB ; result: 0.014 µM
Nc1ncnc2c1ncn2[C@H]1CC[C@@H](CO)O1 ; cell line: CEM ; strain: IIIB ; result: 4 µM
C[C@@H](Cn1cnc2c(N)ncnc21)OCP(=O)(O)O ; cell line: C8166 ; strain: IIIB ; result: ≥100 µM
CCn1c(=O)c(C)cn([C@@H]2O[C@H](CO[Si](C)(C)C(C)(C)C)C3(OS(=O)(=O)C=C3N)[C@H]2O[Si](C)(C)C(C)(C)C)c1=O ; mutations: RT-Y181C ; cell line: CEM ; strain: IIIB ; result: >75 µM
C[C@H](Cn1cnc2c(N)ncnc21)OCP(=O)(O)O ; mutations: RT-Y188H ; cell line: CEM ; strain: IIIB ; result: 0.8 µg/mL
CC(C)=CCN1Cc2cc(Cl)cc3[nH]c(=S)n(c23)C[C@@H]1C ; mutations: RT-L100I Y188H ; cell line: CEM ; strain: IIIB TIBO R82913 STR-B22 (RT L100I Y188H) ; result: >5 µM
Cc1ccnc2c1NC(=O)c1cccnc1N2C1CC1 ; mutations: RT-V106A ; cell line: CEM ; strain: IIIB ; result: ≥5 µM
O=c1[nH]cnc2c1ncn2[C@H]1CC[C@@H](CO)O1 ; cell line: H9 ; strain: IIIB ; result: 0.21 µM
C=C(C)OC(=O)N1c2cc(Cl)ccc2NC(=S)C1(C)C ; cell line: CEM ; strain: IIIB Laboratory clade B ; result: 0.001 µg/mL
CCOCn1c(Sc2ccccc2)c(CC)c(=O)[nH]c1=S ; mutations: RT-Y181C ; cell line: CEM ; strain: IIIB ; result: 1.6 µM
C#CCN1C(=O)N(Cc2ccccc2)S(=O)(=O)c2cscc21 ; cell line: MT-4 ; strain: RF ; result: 0.6 µM
C=C(C)OC(=O)N1c2cc(Cl)ccc2NC(=S)C1(C)C ; mutations: RT-Y181C ; cell line: CEM ; strain: Pyr(RT-Y181C) ; result: 0.145 µM
N#CCN1C(=O)N(Cc2ccccc2)S(=O)(=O)c2cscc21 ; mutations: RT-V106A ; cell line: CEM ; result: 156 µM
O=c1[nH]cnc2c1ncn2[C@H]1CC[C@@H](CO)O1 ; mutations: RT-Y181C ; cell line: CEM ; strain: IIIB-Nevirapine(1.0)(RT-Y181C) ; result: 10 µM
Cc1cn([C@@H]2O[C@H](CO[Si](C)(C)C(C)(C)C)C3(OS(=O)(=O)C=C3N)[C@H]2O[Si](C)(C)C(C)(C)C)c(=O)n(C)c1=O ; mutations: RT-Y181I ; cell line: CEM ; strain: Pyr/BHAP(RT-Y181I) ; result: 30 µM
Cc1ccnc2c1NC(=O)c1cccnc1N2C1CC1 ; mutations: RT-L100I ; cell line: CEM ; strain: IIIB TIBO R82150-resistant (RT L100I) ; result: 0.1 µM
Nc1ncnc2c1ncn2CCOCP(=O)(O)O ; cell line: MOLT4 + MOLT-4 ; strain: HE ; result: 10 µM
CCn1c(=O)c(C)cn([C@@H]2O[C@H](CO[Si](C)(C)C(C)(C)C)C3(OS(=O)(=O)C=C3N)[C@H]2O[Si](C)(C)C(C)(C)C)c1=O ; mutations: RT-L100I Y188H ; cell line: CEM ; strain: IIIB TIBO R82913 STR-B22 (RT L100I Y188H) ; result: >50 µM
CC(C)Nc1cccnc1N1CCN(C(=O)c2cc3cc(NS(C)(=O)=O)ccc3[nH]2)CC1 ; cell line: CEM ; strain: IIIB ; result: 0.006 µg/mL
CCNc1cccnc1N1CCN(C(=O)c2cc3cc(OC)ccc3[nH]2)CC1 ; mutations: RT-Y181C ; cell line: CEM ; strain: IIIB-TSAO-m3T(10)(RT-Y181C) ; result: 0.08 µg/mL
Cc1cn([C@H]2C[C@H](N=[N+]=[N-])[C@@H](CO)O2)c(=O)[nH]c1=O ; mutations: RT-M41L D67N K70R T215Y K219Q ; cell line: HT4 + HeLa ; strain: G190-6 Clinical isolate ZDV-resistant ; result: 10 µM
O=C1N(Cc2ccccc2)c2cscc2S(=O)(=O)N1Cc1ccccc1 ; mutations: RT-D67N K70R T215F K219Q ; cell line: MT-4 ; strain: ADP/141 ; result: 1.8 µM
CCOCn1c(Cc2cc(C)cc(C)c2)c(CC)c(=O)[nH]c1=O ; mutations: RT-Y181C ; cell line: CEM ; strain: IIIB E-EBU(RT-Y181C) ; result: 1.1 µg/mL
CCOCn1c(Cc2ccccc2)c(C(C)C)c(=O)[nH]c1=O ; mutations: RT-Y188L ; cell line: CEM ; strain: IIIB ; result: 5 µg/mL
CCOCn1c(Cc2ccccc2)c(CC)c(=O)[nH]c1=O ; mutations: RT-L100I ; cell line: CEM ; strain: IIIB BHAP(RT-L100I) ; result: 0.09 µg/mL
CCN1C(=O)N(Cc2ccccc2)S(=O)(=O)c2cscc21 ; mutations: RT-L100I ; cell line: CEM ; result: 10.2 µM
Cc1cn([C@@H]2O[C@H](CO[Si](C)(C)C(C)(C)C)[C@@]3(OS(=O)(=O)C=C3N)[C@H]2O[Si](C)(C)C(C)(C)C)c(=O)[nH]c1=O ; mutations: RT-E138K ; cell line: CEM ; strain: IIIB TSAO-T(RT-E138K) ; result: 4 µM
CCNc1cccnc1N1CCN(C(=O)c2cc3cc(OC)ccc3[nH]2)CC1 ; mutations: RT-K103N ; cell line: CEM ; strain: IIIB TIBO R82913-resistant (RT K103N) ; result: 1.7 µg/mL
CC(C)=CCOc1cc(NC(=S)c2ccsc2C)ccc1Cl ; cell line: PBL ; strain: IIIB ; result: 0.004 µg/mL
CCn1c(=O)c(C)cn([C@@H]2O[C@H](CO[Si](C)(C)C(C)(C)C)C3(OS(=O)(=O)C=C3N)[C@H]2O[Si](C)(C)C(C)(C)C)c1=O ; mutations: RT-Y181C ; cell line: CEM ; strain: IIIB E-EBU(RT-Y181C) ; result: >50 µg/mL
CC(C)=CCN1Cc2cc(Cl)cc3[nH]c(=S)n(c23)C[C@@H]1C ; mutations: RT-L100I ; cell line: CEM ; strain: TIBO-1(RT-L100I) ; result: 5.6 µM
Cc1cn([C@H]2C[C@H](N=[N+]=[N-])[C@@H](CO)O2)c(=O)[nH]c1=O ; mutations: RT-L100I ; cell line: CEM ; strain: IIIB ; result: 0.002 µg/mL
CCc1cc(NCc2nc3c(Cl)ccc(Cl)c3o2)c(=O)[nH]c1C ; mutations: RT-V106A ; cell line: CEM ; strain: NEV(RT-V106A) ; result: 0.6 µM
Cc1cn([C@@H]2O[C@H](CO[Si](C)(C)C(C)(C)C)C3(OS(=O)(=O)C=C3N)[C@H]2O[Si](C)(C)C(C)(C)C)c(=O)n(C)c1=O ; cell line: CEM ; strain: IIIB ; result: 0.05 µM
Cc1occc1C(=S)Nc1ccc(Cl)c(/C=N/OC(C)(C)C)c1 ; mutations: RT-V179D ; cell line: CEM ; strain: IIIB ; result: 0.17 ± 0.09 µM
CC(C)=CCN1Cc2cc(Cl)cc3[nH]c(=S)n(c23)C[C@@H]1C ; cell line: CEM ; strain: IIIB ; result: 0.021 µg/mL
COC(=O)[C@H](C)NP(=O)(OC[C@@H]1CC[C@H](n2cnc3c(N)ncnc32)O1)Oc1ccccc1 ; cell line: CEM ; strain: IIIB ; result: 0.016 µM
Cc1cn([C@@H]2O[C@H](CO[Si](C)(C)C(C)(C)C)C3(OS(=O)(=O)C=C3N)[C@H]2O[Si](C)(C)C(C)(C)C)c(=O)n(C)c1=O ; mutations: RT-L100I ; cell line: CEM ; strain: IIIB ; result: 0.07 ± 0.017 µM

The first 4 rows once more:

| smiles | mutations | cell line | strain | result |
|---|---|---|---|---|
| Cc1ccnc2c1NC(=O)c1cccnc1N2C1CC1 | RT-Y188H | CEM | IIIB | 0.02 µg/mL |
| CCOCn1c(Sc2ccccc2)c(CC)c(=O)[nH]c1=O | RT-Y181C | CEM | IIIB PYR(RT-Y181C) | 0.26 µg/mL |
| CCc1cc(NCc2nc3c(Cl)ccc(Cl)c3o2)c(=O)[nH]c1C | RT-L100I | CEM | IIIB-TIBO(0.5)(RT-L100I) | 0.51 µg/mL |
| CCc1cc(NCc2nc3c(Cl)ccc(Cl)c3o2)c(=O)[nH]c1C | - | CEM | IIIB | 0.02 µM |